Results of unrelated studies side by side (data: NIAID ChemDB).

Shared fields: tests in culture; agent: HIV-1; endpoint: EC50

Two numbers with a dash give a range or band. ECn: concentration that inhibits the pathogen or its effect by n%. Neighbouring rows are from separate reports. An empty or dashed field is not shown.

SMILES | strain | mutations | conditions | method | cells | value
C=CCOCn1c(CC2CCCc3ccccc32)c(CC)c(=O)[nH]c1=O | IIIB |  |  | cytopathic effect / MTT | MT-4 | 4 µM
CC(C)CN(C[C@@H](O)[C@H](Cc1ccccc1)NC(=O)O[C@H]1CCOC1)S(=O)(=O)c1ccc(-c2ccon2)s1 | IIIB |  |  | p24 | CEM | <0.101 µM
CC(C)[C@@H]1CC[C@@H](C)C[C@H]1O[C@@H]1O[C@H](COS(=O)(=O)O)[C@@H](OS(=O)(=O)O)[C@H](O[C@@H]2O[C@H](COS(=O)(=O)O)[C@@H](OS(=O)(=O)O)[C@H](O[C@@H]3O[C@H](COS(=O)(=O)O)[C@@H](OS(=O)(=O)O)[C@H](O[C@@H]4O[C@H](COS(=O)(=O)O)[C@@H](OS(=O)(=O)O)[C@H](O[C@@H]5O[C@H](COS(=O)(=O)O)[C@@H](OS(=O)(=O)O)[C@H](OS(=O)(=O)O)[C@H]5OS(=O)(=O)O)[C@H]4OS(=O)(=O)O)[C@H]3OS(=O)(=O)O)[C@H]2OS(=O)(=O)O)[C@H]1OS(=O)(=O)O | IIIB |  |  | cytopathic effect / MTT | MT-4 | 0.6 µg/mL
Cc1ccnc2c1NC(=O)c1cccnc1N2C1CC1 | IIIB |  |  | MTT | MT-4 | 0.08 µM
CC(C)CN(C[C@@H](O)[C@H](Cc1ccccc1)NC(=O)O[C@H]1CCOC1)S(=O)(=O)c1ccc(F)c(F)c1 | IIIB |  |  | p24 | CEM | <10 µM
Cc1cn(CC(=O)Nc2ccccn2)c(=O)[nH]c1=O | UG070 |  |  | luciferase | TZM-bl | 29.6 µM
CN1c2ccccc2C2C1C=C(C#N)C(=O)N2c1ccc([N+](=O)[O-])cc1 | C-98INN022 |  |  | GFP / fluorescence | HeLa | 0.07 µM
Oc1ccc(-c2nnc3sc(-c4ccc(O)c(Cl)c4Cl)nn23)cc1Br | IIIB |  |  | MTT | MT-4 | >4.12 µg/mL
CN(C)CCSc1ccc(-c2cc(-c3ccc(SCCN(C)C)cc3)ncn2)cc1 | LAV |  |  | RT activity | PBMC | 3.4 µM
CC(C)CN(C[C@@H](O)[C@H](Cc1ccccc1)NC(=O)OC(C)(C)C)S(=O)(=O)c1ccccc1 | IIIB |  |  | p24 | CEM | <1.001 µM
Nn1c(-c2ccc(Cl)c(Cl)c2)n[nH]c1=S | IIIB |  |  | MTT | MT-4 | >72.83 µg/mL
Cc1cc(C)c(Oc2nc(Nc3ccc(C#N)cc3)nc3sc4c(c23)CCCC4)c(C)c1 |  |  |  | luciferase | HeLa | 0.01–0.1 µM
Clc1ccc(-c2nn3c(-c4ccc(Cl)c(Cl)c4)nnc3s2)cc1Cl | IIIB |  |  | MTT | MT-4 | >67.8 µg/mL
COc1ccc(S(=O)(=O)N(CC(C)C)C[C@@H](O)[C@H](Cc2ccccc2)NC(=O)[C@H](C(C)C)N2CC(=O)N(Cc3ccccc3)C2=O)cc1 |  |  |  | cytopathic effect / MTT | MT-4 | 0.005 µM
COc1ccc2[nH]c(C(=O)NCc3ccc(Cl)c(Oc4cc(Cl)cc(C#N)c4)c3)cc2c1 | HXB2 | V106A in RT |  |  | HeLa | >1 µM
NCC(=O)N1CCC[C@H]1C(=O)NCC(N)=O | SF2 |  |  | p24 | H9 | <100 µM
Cc1cc(C)c(Nc2nc(Nc3ccc(C#N)cc3)nc3c(C)csc23)c(C)c1 | Y181C |  |  | luciferase | HeLa | <0.01 µM
CCCCCCCCO[C@@H]1O[C@H](COS(=O)(=O)O)[C@@H](OS(=O)(=O)O)[C@H](O[C@@H]2O[C@H](COS(=O)(=O)O)[C@@H](OS(=O)(=O)O)[C@H](O[C@@H]3O[C@H](COS(=O)(=O)O)[C@@H](OS(=O)(=O)O)[C@H](O[C@@H]4O[C@H](COS(=O)(=O)O)[C@@H](OS(=O)(=O)O)[C@H](O[C@@H]5O[C@H](COS(=O)(=O)O)[C@@H](OS(=O)(=O)O)[C@H](OS(=O)(=O)O)[C@H]5OS(=O)(=O)O)[C@H]4OS(=O)(=O)O)[C@H]3OS(=O)(=O)O)[C@H]2OS(=O)(=O)O)[C@H]1OS(=O)(=O)O | IIIB |  |  | cytopathic effect / MTT | MT-4 | 1.1 µg/mL
COc1ccc(S(=O)(=O)N(CC(C)C)C[C@@H](O)[C@H](Cc2ccccc2)NC(=O)[C@H](C(C)C)N2CC(=O)N(Cc3csc(C)n3)C2=O)cc1 |  |  | 50% human serum | cytopathic effect / MTT | MT-4 | 0.161 µM
Nc1ccc(-c2nn3c(-c4ccc(Cl)c(Cl)c4)nnc3s2)cc1 | IIIB |  |  | MTT | MT-4 | >19.61 µg/mL
C=Cc1c(C)c2cc3[nH]c(cc4nc(cc5nc(cc1[nH]2)C(C)=C5CCC(=O)O)C(CCC(=O)O)=C4C)c(C)c3C=C | IIIB |  |  | cytopathic effect / XTT | MT-2 | 1 µg/mL
CN(C)CCSc1cccc(-c2cc(-c3cccs3)nc(SCCN(C)C)n2)c1 | LAV |  |  | RT activity | PBMC | 0.8 µM
CCCCCCCCCCCCCCCC(=O)Nc1ccn([C@H]2CC[C@@H](COP(=O)(O)OC[C@@H]3CC[C@H](n4cnc5c(=O)[nH]cnc54)O3)O2)c(=O)n1 | IIIB |  |  | cytopathic effect / XTT | CEM + CEM-SS | 0.697–1.02 µM
O=c1sc2nc3c(c(=S)n2/c1=C/c1ccccc1)C1=C(CCC/C1=C\c1ccncc1)C(c1ccncc1)S3 |  |  |  | MTT | T4 | 71.9 µM
CCCCCCCCCCCCCCCC(=O)Nc1ccn([C@H]2C[C@H](OP(=O)(O)OC[C@H]3O[C@@H](n4cc(C)c(=O)[nH]c4=O)C[C@@H]3N=[N+]=[N-])[C@@H](CO)O2)c(=O)n1 | IIIB |  |  | cytopathic effect / XTT | CEM + CEM-SS | 0.384–3.54 µM
NC(=O)C[C@H](NC(=O)c1ccc2ccccc2n1)C(=O)N[C@@H](Cc1ccccc1)[C@H](O)CN(Cc1ccccc1)S(=O)(=O)c1cccc(C(F)(F)F)c1 | IIIB |  |  | p24 | CEM | <1.001 µM
CC1=C(CCC(=O)O)c2cc3nc(cc4[nH]c(cc5[nH]c(cc1n2)c(CCC(=O)O)c5CC(=O)O)c(CCC(=O)O)c4C)C(CCC(=O)O)=C3C | IIIB |  |  | cytopathic effect / XTT | MT-2 | 37.5 µg/mL
Cc1cc(C)c(Oc2nc(Nc3ccc(C#N)cc3)nc3sccc23)c(C)c1 | Y-188L |  |  | luciferase | HeLa | 0.01–0.1 µM
C=CC1=C(C)C2=NC1=CC1=NC(=Cc3[n-]c4c(c3C)=C([O-])[C@H](C(=O)OC)C=4C3=NC(=C2)[C@@H](C)[C@@H]3CCC(=O)OC/C=C(\C)CCCC(C)CCCC(C)CCCC(C)C)C(CC)=C1C.[Mg+2] | IIIB |  |  | cytopathic effect / XTT | MT-2 | >80 µg/mL
CCC(C)[C@@H](C(=O)N[C@@H](Cc1ccccc1)[C@H](O)CN(CC(C)C)S(=O)(=O)c1ccc(/C=N/O)cc1)N1CCN(Cc2ccccn2)C1=O |  |  | 50% human serum | cytopathic effect / MTT | MT-4 | 0.016 µM
Cc1cc(C#N)cc(C)c1Oc1nc(Nc2ccc(C#N)cc2)nc2sccc12 | Y-188L |  |  | luciferase | HeLa | <0.01 µM
CCOCn1c(CC2CCCc3ccccc32)c(CC)c(=O)[nH]c1=O | N119 RT-Y181C NNRTI-resistant | RT-Y181C |  | cytopathic effect / MTT | MT-4 | >100 µM
CCC(C)[C@@H](C(=O)N[C@@H](Cc1ccccc1)[C@H](O)CN(CC(C)C)S(=O)(=O)c1ccc(/C=N/O)cc1)N1CCN(Cc2cccc(C)n2)C1=O |  |  |  | cytopathic effect / MTT | MT-4 | 0.002 µM
CCOC1N=C2C3=C(N=CN2N1c1ccccc1)SC(c1ccncc1)C1=C3/C(=C/c2ccncc2)CCC1 |  |  |  | MTT | T4 | 70.2 µM
NCC(N)=O | Clinical isolates |  |  | p24 | PBMC | 23 µM
CCCCCCCCCCCCCCCC(=O)Nc1ccn([C@H]2CC[C@@H](COP(=O)(O)O[C@H]3C[C@H](n4cc(C)c(=O)[nH]c4=O)O[C@@H]3CO)O2)c(=O)n1 | IIIB |  |  | cytopathic effect / XTT | CEM + CEM-SS | 0.0644–0.0824 µM
OCCN(CCO)CCOc1nc(-c2cccs2)cc(-c2cccs2)n1 | LAV |  |  | RT activity | PBMC | 3.8 µM
N#CC1=CC2Nc3ccccc3C2N(c2ccc([N+](=O)[O-])cc2)C1=O | 52534-2 |  |  | GFP / fluorescence | HeLa | 0.19 µM
COc1c(O)cc2ccc(=O)oc2c1-c1c(O)ccc2ccc(=O)oc12 |  | A17 (K103N Y181C) |  | MTT | MT-4 | 8.3 µM
CC(CO[C@@H]1O[C@H](COS(=O)(=O)O)[C@@H](OS(=O)(=O)O)[C@H](O[C@@H]2O[C@H](COS(=O)(=O)O)[C@@H](OS(=O)(=O)O)[C@H](O[C@@H]3O[C@H](COS(=O)(=O)O)[C@@H](OS(=O)(=O)O)[C@H](O[C@@H]4O[C@H](COS(=O)(=O)O)[C@@H](OS(=O)(=O)O)[C@H](O[C@@H]5O[C@H](COS(=O)(=O)O)[C@@H](OS(=O)(=O)O)[C@H](OS(=O)(=O)O)[C@H]5OS(=O)(=O)O)[C@H]4OS(=O)(=O)O)[C@H]3OS(=O)(=O)O)[C@H]2OS(=O)(=O)O)[C@H]1OS(=O)(=O)O)CC(C)(C)C | IIIB |  |  | cytopathic effect / MTT | MT-4 | 0.42 µg/mL
CN(C)CCNCc1ccc(-c2cccc(-c3ccc(CNCCN(C)C)cc3)n2)cc1 | LAV |  |  | RT activity | PBMC | 3.7 µM
Nc1ccc(-c2n[nH]c(=S)n2N)cc1 | IIIB |  |  | MTT | MT-4 | >12 µg/mL
CN(C)CCSc1nc(-c2cccs2)cc(-c2cccn2C)n1 | LAV |  |  | RT activity | PBMC | 15.9 µM
COCCOCCOCCOCCO[C@@H]1O[C@H](COS(=O)(=O)O)[C@@H](OS(=O)(=O)O)[C@H](O[C@@H]2O[C@H](COS(=O)(=O)O)[C@@H](OS(=O)(=O)O)[C@H](O[C@@H]3O[C@H](COS(=O)(=O)O)[C@@H](OS(=O)(=O)O)[C@H](O[C@@H]4O[C@H](COS(=O)(=O)O)[C@@H](OS(=O)(=O)O)[C@H](O[C@@H]5O[C@H](COS(=O)(=O)O)[C@@H](OS(=O)(=O)O)[C@H](OS(=O)(=O)O)[C@H]5OS(=O)(=O)O)[C@H]4OS(=O)(=O)O)[C@H]3OS(=O)(=O)O)[C@H]2OS(=O)(=O)O)[C@H]1OS(=O)(=O)O | IIIB |  |  | cytopathic effect / MTT | MT-4 | 88 µg/mL
CN1CCN(c2nc(-c3cccs3)cc(-c3cc4ccccc4s3)n2)CC1 | LAV |  |  | RT activity | PBMC | 10.1 µM
CC(C)CN(C[C@@H](O)[C@H](Cc1ccccc1)NC(=O)OCc1ccccc1)S(=O)(=O)c1ccc2nonc2c1 | IIIB |  |  | p24 | CEM | <1.001 µM
CC(O)CCCCCC(CCCCCCCCCCCCCC1CC(=O)OC[C@H]2O[C@@H](OC(CCCCCCCCCCCC(CCCCCC(C)O)O[C@@H]3O[C@H](CO)[C@@H](O)[C@H](O)[C@H]3O)CC(=O)OC[C@@H]3O[C@H](O1)[C@@H](O)[C@H](O)[C@H]3O)[C@H](O)[C@@H](O)[C@@H]2O)O[C@@H]1O[C@H](CO)[C@@H](O)[C@H](O)[C@H]1O | IIIB |  |  | β-galactosidase | MAGI (CCR5) + MAGI | 4.3 µg/mL
Cc1cn(CC(=O)Nc2ccc([N+](=O)[O-])cn2)c(=O)[nH]c1=O | IIIB |  |  | luciferase | TZM-bl | 17.6 µM
C=Cc1c(C)c2cc3[nH]c(cc4nc(cc5nc(cc1[nH]2)C(C)=C5CCC(=O)O)C(CCC(=O)O)=C4C)c(C)c3C(C)O | IIIB |  |  | cytopathic effect / XTT | MT-2 | 3.1 µg/mL
O=C(CCC(=O)Nc1ccc(Br)cn1)Nc1ccc(Br)cn1 | UG070 |  |  | luciferase | TZM-bl | 35.04 µM
CCCCCCCCO[C@@H]1O[C@H](COS(=O)(=O)O)[C@@H](OS(=O)(=O)O)[C@H](O[C@@H]2O[C@H](COS(=O)(=O)O)[C@@H](OS(=O)(=O)O)[C@H](O[C@@H]3O[C@H](COS(=O)(=O)O)[C@@H](OS(=O)(=O)O)[C@H](O[C@@H]4O[C@H](COS(=O)(=O)O)[C@@H](OS(=O)(=O)O)[C@H](OS(=O)(=O)O)[C@H]4OS(=O)(=O)O)[C@H]3OS(=O)(=O)O)[C@H]2OS(=O)(=O)O)[C@H]1OS(=O)(=O)O | IIIB |  |  | cytopathic effect / MTT | MT-4 | 25 µg/mL
CCOC(=O)N[C@@H](Cc1ccccc1)[C@H](O)CN(CC(C)C)S(=O)(=O)c1ccc(F)cc1 | IIIB |  |  | p24 | CEM | <1.001 µM
Nc1cc(O)ccc1-c1nnc2sc(-c3cc4ccccc4oc3=O)nn12 | IIIB |  |  | MTT | MT-4 | >108.3 µg/mL
NCC(=O)O | SF2 |  |  | p24 | H9 | >100 µM
O=C(Cn1cnc2c([N+](=O)[O-])cccc21)Nc1ccccn1 | UG070 |  |  | luciferase | TZM-bl | 8.65 µM
Oc1ccc(-c2nnc3sc(-c4cccnc4)nn23)c(Cl)c1Cl | IIIB |  |  | MTT | MT-4 | >80.05 µg/mL

8 of the rows above, restated:

| SMILES | strain | mutations | conditions | method | cells | value |
|---|---|---|---|---|---|---|
| CC(C)CN(C[C@@H](O)[C@H](Cc1ccccc1)NC(=O)OCc1ccccc1)S(=O)(=O)c1ccc2nonc2c1 | IIIB |  |  | p24 | CEM | <1.001 µM |
| Cc1cn(CC(=O)Nc2ccc([N+](=O)[O-])cn2)c(=O)[nH]c1=O | IIIB |  |  | luciferase | TZM-bl | 17.6 µM |
| CCOCn1c(CC2CCCc3ccccc32)c(CC)c(=O)[nH]c1=O | N119 RT-Y181C NNRTI-resistant | RT-Y181C |  | cytopathic effect / MTT | MT-4 | >100 µM |
| Cc1cc(C)c(Oc2nc(Nc3ccc(C#N)cc3)nc3sccc23)c(C)c1 | Y-188L |  |  | luciferase | HeLa | 0.01–0.1 µM |
| Oc1ccc(-c2nnc3sc(-c4cccnc4)nn23)c(Cl)c1Cl | IIIB |  |  | MTT | MT-4 | >80.05 µg/mL |
| C=CCOCn1c(CC2CCCc3ccccc32)c(CC)c(=O)[nH]c1=O | IIIB |  |  | cytopathic effect / MTT | MT-4 | 4 µM |
| O=C(Cn1cnc2c([N+](=O)[O-])cccc21)Nc1ccccn1 | UG070 |  |  | luciferase | TZM-bl | 8.65 µM |
| COc1c(O)cc2ccc(=O)oc2c1-c1c(O)ccc2ccc(=O)oc12 |  | A17 (K103N Y181C) |  | MTT | MT-4 | 8.3 µM |